Compound potency records, mixed from different reports. Data source: NIAID ChemDB in PubChem.

Shared fields: enzyme or target tests

An empty or dashed field is not shown.

| smiles | tested at | strain | method | target | read-out | organism | value |
|---|---|---|---|---|---|---|---|
| C[C@@H]1CN(c2c(F)c(N)c3c(=O)c(C(=O)O)cn(C4CC4)c3c2F)C[C@H](C)N1 | - | H37Rv | gel | DNA gyrase | IC50 | Mycobacterium tuberculosis | 2 µg/mL |
| CO[C@H]1O[C@@H](n2ccc(=O)[nH]c2=O)C[C@@H]1N=[N+]=[N-] | - | - | - | Thymidine monophosphate kinase | Ki | Mycobacterium tuberculosis | 811 µM |
| CCOc1ccc2cc(-n3nncc3COc3nc(-c4ccccc4)sc3C=O)c(=O)oc2c1 | - | - | gel / absorbance | DNA gyrase | IC50 | Mycobacterium tuberculosis | 7.3 µM |
| CCn1cc(C(=O)O)c(=O)c2cc3c(cc21)OCO3 | - | H37Rv | gel | DNA gyrase | IC50 | Mycobacterium tuberculosis | 300 µg/mL |
| Nc1ncc(Br)cc1S(=O)(=O)NCCC(=O)Nc1cccc(Cl)c1 | 100 µM | H37Rv | absorbance | Lipoamide dehydrogenase | inhibition | Mycobacterium tuberculosis | 15% |
| N=C(N)CCCCNC(=O)/C(Cc1cc(Br)c(OCCCN)c(Br)c1)=N/O | - | - | - | MYCOTHIOL-S-CONJUGATE AMIDASE | IC50 | Mycobacterium tuberculosis | 3 µM |
| O=c1[nH]c(=O)n([C@H]2C[C@H](O)[C@@H](CO)O2)cc1F | - | - | - | Thymidine monophosphate kinase | Ki | Mycobacterium tuberculosis | 212 µM |
| O=C(N/N=C/c1ccc(O)c([N+](=O)[O-])c1)c1ccc(S(=O)(=O)NC[C@H]2O[C@@H](n3ccc(=O)[nH]c3=O)[C@H](O)[C@@H]2O)cc1 | - | - | - | UDP-galactopyranose mutase | IC50 | Mycobacterium tuberculosis | >100 µM |
| Cc1ccc2c3c1C(CN)OB3OCCO2 | - | - | radiometric | Leucyl-tRNA synthetase | IC50 | Mycobacterium tuberculosis | 0.33 µM |
| O=c1oc(Cc2ccccc2C(F)(F)F)ns1 | - | - | broth dilution / fluorescence | Proteasome | IC50 | Mycobacterium tuberculosis | >100 µM |
| C[n+]1ccc(Nc2ccc(NC(=O)c3cc(Nc4cc[n+](C)c5ccc([N+](=O)[O-])cc45)ccc3[N+](=O)[O-])cc2)cc1 | - | - | HPLC | Mycolate synthetase | IC50 | Mycobacterium tuberculosis | 500 µM |
| Nc1ccc2nccc(-n3cncn3)c2c1 | - | - | absorbance | CYP121 | Ki | Mycobacterium tuberculosis | 50 µM |
| CCOc1ccc2cc(-n3nncc3COc3nc(-c4ccncc4)sc3C(=O)OC)c(=O)oc2c1 | - | - | gel / absorbance | DNA gyrase | IC50 | Mycobacterium tuberculosis | 8.3 µM |
| Cc1ccc2nc(C)cc(N)c2c1 | - | - | HPLC | Mycolate synthetase | IC50 | Mycobacterium tuberculosis | 4200 µM |
| Nc1nc(N)c2cc(NC3c4ccccc4CCc4ccccc43)ccc2n1 | - | - | - | DHFR | IC50 | Mycobacterium avium | 2 µM |
| COC1=C(Br)[C@@H](O)[C@]2(C=C1Br)CC(C(=O)NCCc1[nH]c(N)nc1-c1cc(O)c3[nH]cc(O)c(=O)c3c1O)=NO2 | - | - | - | MYCOTHIOL-S-CONJUGATE AMIDASE | IC50 | Mycobacterium tuberculosis | 3 µM |
| CO[C@H](c1ccccc1)c1nsc(=O)o1 | - | - | broth dilution / fluorescence | Proteasome | IC50 | Mycobacterium tuberculosis | >100 µM |
| CN(Cc1ccccc1)C(=O)CN(C)S(=O)(=O)c1cc(Br)cnc1N | 100 µM | H37Rv | absorbance | Lipoamide dehydrogenase | inhibition | Mycobacterium tuberculosis | 70% |
| O=Cc1sc(-c2ccccn2)nc1OCc1cnnn1-c1cc2ccc(O)cc2oc1=O | - | - | gel / absorbance | DNA gyrase | IC50 | Mycobacterium tuberculosis | >25 µM |
| CN1CCN(S(=O)(=O)c2cc(Br)cnc2N)CC1 | 100 µM | H37Rv | absorbance | Lipoamide dehydrogenase | inhibition | Mycobacterium tuberculosis | 10% |
| CC1CCc2cc(F)cc3c(=O)c(C(=O)O)cn1c23 | - | H37Rv | gel | DNA gyrase | IC50 | Mycobacterium tuberculosis | 500 µg/mL |
| O=c1[nH]c(=O)n([C@H]2C[C@H](O)[C@@H](CO)O2)cc1CO | - | - | - | Thymidine monophosphate kinase | Ki | Mycobacterium tuberculosis | 820 µM |
| Nc1ccc2cc(-n3nncc3COc3nc(-c4ccccc4)sc3C=O)c(=O)oc2c1 | - | - | gel / absorbance | DNA gyrase | IC50 | Mycobacterium tuberculosis | 0.62 µM |
| Cc1cn([C@@H]2O[C@H](COP(=O)([O-])[O-])[C@@H](O)[C@H]2Cl)c(=O)[nH]c1=O | - | - | - | Thymidine monophosphate kinase | Ki | Mycobacterium tuberculosis | 43.05 µM |
| CCOC(=O)c1cnn(C)c1S(=O)(=O)NC(=O)Nc1nc(OC)cc(OC)n1 | - | - | - | Acetohydroxyacid synthase | Ki | Mycobacterium tuberculosis | 7.1 µM |
| C=Cc1nsc(=O)o1 | - | - | broth dilution / fluorescence | Proteasome | IC50 | Mycobacterium tuberculosis | 27 µM |
| CN(C[C@H](O)[C@H](O)[C@H](O)CO)c1[nH]c(=O)[nH]c(=O)c1[N+](=O)[O-] | - | - | - | Lumazine synthase | Ki | Mycobacterium tuberculosis | 72.1 µM |
| Cc1cn([C@H]2C[C@H](N=[N+]=[N-])[C@@H](COP(=O)(O)O)O2)c(=O)[nH]c1=O | - | - | - | Thymidylate kinase | Ki | Mycobacterium tuberculosis | 50 µM |
| Cc1ccccc1/C=C/c1nsc(=O)o1 | - | - | broth dilution / fluorescence | Proteasome | IC50 | Mycobacterium tuberculosis | 22 µM |
| N[C@@H]1CN(c2c(F)cc3c(=O)c(C(=O)O)cn([C@@H]4C[C@@H]4F)c3c2Cl)CC12CC2 | - | H37Rv | gel | DNA gyrase | IC50 | Mycobacterium tuberculosis | 2.5 µg/mL |
| COc1cnc2ccc(=O)n(CCN3CCC(NCc4cc(Cl)c(Cl)cn4)CC3)c2c1 | - | - | gel | DNA gyrase | IC50 | Mycobacterium tuberculosis | 5.4 µM |
| CC(=O)N[C@H]1C(O)O[C@H](COC(C)=O)[C@@H](OC(C)=O)[C@H]1O[C@@H]1O[C@@H](C)C[C@@H](OCc2ccccc2)[C@H]1OCc1ccccc1 | - | - | - | Galactosyltransferase | IC50 | Mycobacterium tuberculosis | 410 µg/mL |
| COc1cc(Cc2cnc(N)nc2N)cc(OC)c1OC | - | - | - | Dihydrofolate reductase | IC50 | Mycobacterium tuberculosis | 16.5 µM |
| Cc1cc(N)c2ccccc2[n+]1CCCCCCCCCC[n+]1c(C)cc(N)c2ccccc21 | - | - | HPLC | Mycolate synthetase | IC50 | Mycobacterium tuberculosis | 24 µM |
| Nc1ncnc2c1c(-c1cccs1)cn2[C@@H]1O[C@H](CO)[C@@H](O)[C@H]1O | - | - | - | Adenosine kinase | IC50 | Mycobacterium tuberculosis | 6.6 µM |
| COC1=C(Br)CC2(OC=C1Br)ON=C(C(=O)NCCCOc1c(Br)cc(CCN)cc1Br)[C@@H]2O | - | - | - | MYCOTHIOL-S-CONJUGATE AMIDASE | IC50 | Mycobacterium tuberculosis | 30 µM |
| O=c1[nH]c(=O)n([C@H]2C[C@H](O)[C@@H](CO)O2)cc1/C=C/Br | - | - | - | Thymidylate kinase | Ki | Mycobacterium tuberculosis | 900 µM |
| CCC(C)[C@H](NC(=O)N[C@H]1CCCCNC(=O)[C@H](Cc2ccccc2)NC(=O)[C@@H](CC(=O)c2ccccc2NC=O)N(C)C(=O)[C@H](CC(C)C)NC(=O)[C@H](C(C)CC)NC1=O)C(=O)O | - | - | - | Protein tyrosine phosphatase B | IC50 | Mycobacterium tuberculosis | 8 µM |
| CCN(CC)CCOC(=O)C(Cc1cccc2ccccc12)CC1CCCO1 | - | - | - | Pantothenate synthetase | Ki | Mycobacterium tuberculosis | 75 µM |
| C[C@H]1NCc2cc(-c3ccc4c(=O)c(C(=O)O)cn(C5CC5)c4c3OC(F)F)ccc21 | - | H37Rv | gel | DNA gyrase | IC50 | Mycobacterium tuberculosis | 13 µg/mL |
| COC(=O)c1sc(-c2ccccc2)nc1OCc1cnnn1-c1cc2ccc(O)cc2oc1=O | - | - | gel / absorbance | DNA gyrase | IC50 | Mycobacterium tuberculosis | 14.9 µM |
| O=C(O)Cc1ccc(O)c(Cl)c1 | - | Rv3273 | - | Rv3273 | Ki | Mycobacterium tuberculosis | 10.8 µM |
| CCOc1ccc2cc(-n3nncc3COc3nc(-c4ccncc4)sc3C(=O)O)c(=O)oc2c1 | - | - | gel / absorbance | DNA gyrase | IC50 | Mycobacterium tuberculosis | 9.7 µM |
| O=c1oc(/C=C/c2c[nH]c3ccccc23)ns1 | - | - | broth dilution / fluorescence | Proteasome | IC50 | Mycobacterium tuberculosis | 1.2 µM |
| Cc1[nH]n(-c2ccccc2)c(=O)c1Sc1ccc(Cl)cc1Cl | - | - | fluorescence | Phosphopantothenoyl-L-cysteine synthetase | IC50 | Mycobacterium tuberculosis | 3.2 µM |
| CCn1cc(C(=O)O)c(=O)c2cc(F)c(N3CCNCC3)nc21 | - | H37Rv | gel | DNA gyrase | IC50 | Mycobacterium tuberculosis | 50 µg/mL |
| Nc1nc(N)c2cc(CN3c4ccccc4C=Cc4ccccc43)cnc2n1 | - | - | - | DHFR | IC50 | Mycobacterium avium | 0.027 µM |
| O=Cc1cc([N+](=O)[O-])cc([N+](=O)[O-])c1O | 25 µM | - | - | UDP-galactopyranose mutase | inhibition | Mycobacterium tuberculosis | 1% |

The last 3 rows once more:

CCn1cc(C(=O)O)c(=O)c2cc(F)c(N3CCNCC3)nc21 ; strain: H37Rv ; method: gel ; target: DNA gyrase ; read-out: IC50 ; organism: Mycobacterium tuberculosis ; value: 50 µg/mL
Nc1nc(N)c2cc(CN3c4ccccc4C=Cc4ccccc43)cnc2n1 ; target: DHFR ; read-out: IC50 ; organism: Mycobacterium avium ; value: 0.027 µM
O=Cc1cc([N+](=O)[O-])cc([N+](=O)[O-])c1O ; tested at: 25 µM ; target: UDP-galactopyranose mutase ; read-out: inhibition ; organism: Mycobacterium tuberculosis ; value: 1%

Conditions beyond the fields shown may differ between rows. Inhibition is in % at the dose shown (toxicity tests: loss of growth or viability). ICn: concentration for n% inhibition.